Anti-infective test results gathered from many reports (values: NIAID ChemDB through PubChem).

Common to all: growth or infection tests; agent: HIV-1; cells: CEM; endpoint: fold resistance

Fold resistance has wild type as its base. Conditions beyond the fields shown may differ between rows. Blank or dashed fields: not listed here.

smiles	strain	changes	read by	value
C#CCOC(=O)c1cc(NC(=S)OC(C)C)ccc1Cl	-	RT-V106A	syncytia	≥34.5
CCCCCCCCCC[N+](C)(C)CCCNCc1c(O)cc2c(c1O)-c1cc(ccc1O)[C@H]1NC(=O)[C@@H]3NC(=O)C4NC(=O)[C@@H](Cc5ccc(c(Cl)c5)Oc5cc3cc(c5O)Oc3ccc(cc3Cl)[C@@H](O)[C@H](NC1=O)C(=O)N[C@@H]2C(=O)O)NC(=O)[C@H](N)c1ccc(O)c(c1)Oc1cc(O)cc4c1	-	RT-K103N	syncytia	2.14
CC(C)OC(=O)c1cc(NC(=S)OC(C)C)ccc1Cl	IIIB	RT-V179D	syncytia	11
CC(C)OC(=O)c1cc(NC(=S)c2ccccc2N)ccc1Cl	-	RT-L100I	syncytia	86.7
Cc1occc1C(=O)Nc1ccc(Cl)c(/C=N/N2CCCC2)c1	HEPT-resistant (RT Y188L)	RT-Y188L	syncytia	<6.15
CN1CCN(C(=O)c2ccc3c(=O)c4ccccc4[nH]c3c2)CC1	-	RT-Y181C	syncytia	70.9
CC(C)=CCOc1cc(NC(=S)c2ccoc2C)ccc1Cl	IIIB	RT-V179D	syncytia	1.9
COc1ccc(NC(=S)c2ccoc2C)cc1OCC=C(Cl)Cl	Pyridone-resistant (RT Y181C)	RT-Y181C	syncytia	20.8
Cn1cccc1C(=S)Nc1ccc(Cl)c(/C=N/OC(C)(C)C)c1	-	RT-K103N	syncytia	5.9
CCOC(=O)COc1cc(NC(=S)OC(C)C)ccc1Cl	-	RT-E138K	syncytia	12.8
Cc1occc1C(=O)Nc1ccc(Cl)c(C(=O)OC(C)C2CC2)c1	-	RT-L100I	syncytia	17.1
Cc1ccc(C)c(C(Cl)S(=O)(=O)c2cc(C)cc[n+]2[O-])c1	-	RT-Y181C	cytopathic effect	>8.3
CO/N=C/c1cc(NC(=S)OC(C)C)ccc1Cl	-	RT-L100I	syncytia	43.4
CC(C)=CCOc1cc(NC(=S)c2ccsc2C)ccc1Cl	-	RT-E138K	syncytia	1.9
CC(C)c1c(Sc2ccccc2)n(COCCO)c(=S)[nH]c1=O	IIIB	RT-Y181I	syncytia	>50
CC[C@@H](C)OC(=S)Nc1ccc(Cl)c(C(=O)OC(C)C)c1	-	RT-V106A	syncytia	1.98
Cc1ccccc1C(=S)Nc1ccc(Cl)c(C(=O)OC(C)C)c1	-	RT-L100I	syncytia	18.7
Cc1cc(C)cc(Sc2c(C(C)C)c(=O)[nH]c(=S)n2COCCO)c1	IIIB TIBO R82913-resistant (RT K103N)	RT-K103N	syncytia	100
CC(C)OC(=O)c1cc(NC(=S)OC(C)C)ccc1Cl	-	RT-Y181C	syncytia	67.9
CC1=C(C(=O)Nc2ccc(Cl)c(C(=O)OCC3CCC3)c2)SCCO1	TIBO-resistant (RT L100I)	RT-L100I	syncytia	22.4
CC(C)=CCOc1cc(NC(=S)c2ccsc2C)ccc1Cl	IIIB	RT-Y188L	syncytia	20
Cc1cc(C)c(CS(=O)c2cccc[n+]2[O-])c(C)c1	-	RT-K103N	cytopathic effect	4.58
CC(C)=CCOc1cc(NC(=S)c2ccoc2C)ccc1Cl	-	RT-Y181C	syncytia	5
C/C(Cl)=C/COc1cc(NC(=S)c2ccoc2C)ccc1Cl	Pyridone-resistant (RT Y181C)	RT-Y181C	syncytia	14.3
Cc1occc1C(=S)Nc1ccc(Cl)c(/C=N/OCc2ccccc2)c1	-	RT-V106A	syncytia	2.05
CCC(=O)Oc1ccc(NC(=O)C2=C(C)OCCS2)cc1C(=O)OC(C)C	TIBO-resistant (RT L100I)	RT-L100I	syncytia	>2.22
CCc1c(Cc2cc(C)cc(C)c2)n(COCCO)c(=O)[nH]c1=O	IIIB (TIBO 82150) (RT-L100I)	RT-L100I	syncytia	6.07
CC(C)OC(=O)c1cc(NC(=S)c2ccco2)ccc1Cl	-	RT-V106A	syncytia	15
Cc1ccc(C)c(C(C)S(=O)(=O)c2c(C)ccc[n+]2[O-])c1	-	RT-Y181C	cytopathic effect	≥200
COc1ccccc1C(=S)Nc1ccc(Cl)c(C(=O)OC(C)C)c1	-	RT-Y181C	syncytia	46
C/C=C\COc1cc(NC(=S)OC(C)C)ccc1OC	-	RT-L100I	syncytia	75
CCc1c(Sc2cc(C)cc(C)c2)n(COCCO)c(=O)[nH]c1=O	IIIB	RT-Y181C	syncytia	290
COCCOC(=S)Nc1ccc(Cl)c(C(=O)OC(C)C)c1	-	RT-E138K	syncytia	31.6
COc1ccc(C)cc1CS(=O)(=O)c1cccc[n+]1[O-]	IIIB	RT-K103N	syncytia	7.5
Cc1ccccc1OC(=O)c1cc(NC(=S)OC(C)C)ccc1Cl	-	RT-E138K	syncytia	18.8
Cc1ccsc1C(=S)Nc1ccc(Cl)c(C(=O)OC(C)C)c1	-	RT-E138K	syncytia	26.7
C=C(Cl)COc1cc(NC(=S)c2ccoc2C)ccc1C	Pyridone-resistant (RT Y181C)	RT-Y181C	syncytia	16.3
CC(C)OC(=S)Nc1ccc(Cl)c(C(=O)OCc2ccccc2)c1	-	RT-V106A	syncytia	24.3
Cc1occc1C(=S)Nc1ccc(Cl)c(OC(=O)OC(C)C)c1	-	RT-E138K	syncytia	1.64
CCOC(=O)c1cc(NC(=O)C2=C(C)OCCS2)ccc1Cl	Nevirapine-resistant (RT V106A)	RT-V106A	syncytia	>100
Cc1ccsc1C(=S)Nc1ccc(Cl)c(C(=O)OC2CCCCC2)c1	-	RT-L100I	syncytia	7.11
CO/N=C(\C)COc1cc(NC(=S)OC(C)C)ccc1Cl	-	RT-E138K	syncytia	7.13
Cc1occc1C(=S)Nc1ccc(Cl)c(SCC=C(Cl)Cl)c1	TIBO R82913-resistant (RT K103N)	RT-K103N	syncytia	16
CC[C@H](C)OC(=S)Nc1ccc(Cl)c(C(=O)OC(C)C)c1	-	RT-L100I	syncytia	23.3
C/C(Cl)=C/COc1cc(NC(=O)c2ccoc2C)ccc1Cl	TIBO R82150-resistant (RT L100I)	RT-L100I	syncytia	15.6
Cc1occc1C(=S)Nc1ccc(Cl)c(/C=N/OC(C)(C)C)c1	IIIB	RT-V106A	syncytia	3
Cc1occc1C(=S)Nc1ccc(Cl)c(OCC=C(Cl)Cl)c1	Pyridone-resistant (RT Y181C)	RT-Y181C	syncytia	18.8
C#CCOc1cc(NC(=S)c2ccoc2C)ccc1Cl	-	RT-Y181C	syncytia	6.63
CC1=C(C(=O)Nc2ccc(Cl)c(C(=O)OC(C)C)c2)SCCO1	IIIB	RT-K101E	-	2.8
COc1ccc(NC(=O)c2ccoc2C)cc1OCC=C(Cl)Cl	HEPT-resistant (RT Y188H)	RT-Y188H	syncytia	40
C/C=C/COc1cc(NC(=S)c2ccoc2C)ccc1Cl	-	RT-E138K	syncytia	85
Cc1cc(C)c(CS(=O)c2cccc[n+]2[O-])c(C)c1	IIIB	RT-Y181C	syncytia	4.14
C=CCOC(=O)c1cc(NC(=S)OC(C)C)ccc1Cl	-	RT-V106A	syncytia	2.5
C=CCOc1cc(NC(=S)c2sccc2C)ccc1OC	-	RT-L100I	syncytia	108
CC(C)OC(=S)Nc1ccc(Cl)c(C(=O)OCC(F)(F)F)c1	-	RT-L100I	syncytia	21.4
O=S(=O)(Cc1ccccc1I)c1cccc[n+]1[O-]	IIIB	RT-L100I	syncytia	1.25
CC(C)OC(=O)c1cc(NC(=S)c2cccs2)ccc1Cl	-	RT-E138K	syncytia	30
CC1=C(C(=O)Nc2ccc(Cl)c(C(=O)OC(C)C)c2)SCCO1	IIIB	RT-Y181C	syncytia	1000
Cc1ccsc1C(=O)Nc1ccc(Cl)c(C(=O)OC2CCCCC2)c1	-	RT-Y181C	syncytia	26.3
CCCCCCCCCC[N+](C)(C)CCCNCc1c(O)cc2c(c1O)-c1cc(ccc1O)[C@H]1NC(=O)[C@@H]3NC(=O)C4NC(=O)[C@@H](Cc5ccc(c(Cl)c5)Oc5cc3cc(c5O)Oc3ccc(cc3Cl)[C@@H](O)[C@H](NC1=O)C(=O)N[C@@H]2C(=O)O)NC(=O)[C@H](N)c1ccc(O)c(c1)Oc1cc(O)cc4c1	-	RT-L100I	syncytia	1.89
Cc1ccsc1C(=S)Nc1ccc(Cl)c(/C=N/OC(C)(C)C)c1	-	RT-V106A	syncytia	20
Cc1occc1C(=O)Nc1ccc(Cl)c(SCC=C(Cl)Cl)c1	TIBO R82913-resistant (RT K103N)	RT-K103N	syncytia	21.5
Cc1ccc(C)c(CSc2c(Cl)ccc[n+]2[O-])c1	-	RT-K103N	cytopathic effect	96
CC(C)OC(=O)c1cc(NC(=S)SC(C)C)ccc1Cl	-	RT-L100I	syncytia	>1.54
COc1ccccc1C(=S)Nc1ccc(Cl)c(C(=O)OC2CCCC2)c1	-	RT-E138K	syncytia	14.7
CCC(C)OC(=O)c1cc(NC(=S)OC(C)C)ccc1Cl	-	RT-E138K	syncytia	27.3
CCCOC(=O)c1ccc(C)c(NC(=O)C2=C(C)OCCS2)c1	PYR-resistant (RT Y181C)	RT-Y181C	syncytia	>10
CCOCn1c(Sc2cc(C)cc(C)c2)c(CC)c(=O)[nH]c1=O	IIIB	RT-E138K	syncytia	7.5
CC(C)OC(=S)Nc1ccc(Cl)c(COC(C)(C)C)c1	-	RT-V106A	syncytia	≥2.22

Repeating the final 6 entries:

smiles	strain	changes	read by	value
CC(C)OC(=O)c1cc(NC(=S)SC(C)C)ccc1Cl	-	RT-L100I	syncytia	>1.54
COc1ccccc1C(=S)Nc1ccc(Cl)c(C(=O)OC2CCCC2)c1	-	RT-E138K	syncytia	14.7
CCC(C)OC(=O)c1cc(NC(=S)OC(C)C)ccc1Cl	-	RT-E138K	syncytia	27.3
CCCOC(=O)c1ccc(C)c(NC(=O)C2=C(C)OCCS2)c1	PYR-resistant (RT Y181C)	RT-Y181C	syncytia	>10
CCOCn1c(Sc2cc(C)cc(C)c2)c(CC)c(=O)[nH]c1=O	IIIB	RT-E138K	syncytia	7.5
CC(C)OC(=S)Nc1ccc(Cl)c(COC(C)(C)C)c1	-	RT-V106A	syncytia	≥2.22